A mixed list of measured activities; the numbers were collected in NIAID ChemDB.

All rows: growth or infection tests; species: Hepatitis C virus; endpoint: EC50

ECn: concentration that inhibits the pathogen or its effect by n%. Two numbers with a dash give a range or band. Neighbouring rows are from separate reports. An empty or dashed field is not shown.

smiles,strain,changes,cell line,method,result
Cc1ccc(-n2ncc3c(NC(=O)Nc4ccc(C(F)(F)F)cc4)ncnc32)c(C)c1,,,HUH 9B,replicon,1–10 µM
COC(=O)N1c2cccc(O)c2NC2=C(C(=O)CC(C)(C)C2)C1c1ccc(OCc2ccccc2)cc1Cl,1b,,,luciferase / reporter gene / replicon,3.71 µM
COC(=O)N[C@H](C(=O)N1CCC[C@H]1c1ncc(-c2ccc(-c3ccc(-c4cnc([C@@H]5CCCN5C(=O)[C@@H](NC(=O)OC)C(C)C)[nH]4)cc3)cc2)[nH]1)C(C)C,1b,L31F,ET,luciferase,0.000022 µM
Nc1ncnc2c1c(I)cn2[C@@H]1O[C@H](CO)[C@@H](O)C1(F)F,1b,,HCV replicon,replicon,0.06 µM
CC(C)C(=O)N1c2cccc(O)c2NC2=C(C(=O)CC(C)(C)C2)[C@@H]1c1ccc(OCc2ccccc2)cc1Cl,1b,,,luciferase / reporter gene / replicon,0.98 µM
CCOc1nc(NCc2ccc(S(N)(=O)=O)cc2)nc2ccc(-c3ccc(NOC(C)(C)N)cc3)nc12,,,,replicon,<0.1 µM
CC(=O)N1c2cccc(O)c2NC2=C(C(=O)CC(C)(C)C2)C1c1cncn1C,1b,,,luciferase / reporter gene / replicon,>100 µM
CCCOc1ccc2oc(-c3ccccc3)c(C(=O)NC)c2c1,,,Huh7,replicon,<30 µM
N#Cc1cc(-c2ccc3nc(NCc4ccc(S(N)(=O)=O)cc4)nc(NCC(F)(F)F)c3n2)ccn1,,,,replicon,<0.1 µM
Cn1c(=O)cc(Sc2ccc(F)cc2)c2cc(F)ccc21,,,Huh-Luc-Neo,luciferase / replicon,1–10 µM
Nc1ncnc2c1c(-c1ccco1)cn2[C@@H]1O[C@H](CO)[C@@H](O)C1(F)F,2a,,HCV replicon,replicon,5.62 µM
CCOc1nc(NCc2ccc(S(N)(=O)=O)cc2)nc2ccc(-c3ccc(NC(=O)NCCN4CCCC4)cc3)nc12,,,,replicon,<0.1 µM
Cc1ccc(Sc2cc(=O)n(C)c3ccc(C)cc23)cc1,,,Huh-Luc-Neo,luciferase / replicon,<1 µM
NC(=S)Nc1cccc(OCCCCCOc2c(Cl)cc(F)cc2Cl)c1,,,Ava5-EG(delta4AB)SEAP,reporter gene / fluorescence,0.001–1 µM
NS(=O)(=O)c1ccc(CCNc2ncnc3c2CNN3c2ccccc2Br)cc1,,,HUH 9B,replicon,1–10 µM
Nc1ncnc2c1c(-c1cccs1)cn2[C@@H]1O[C@H](CO)[C@@H](O)[C@H]1F,2a,,HCV replicon,replicon,7.96 µM
CCCCc1ccc(Nc2ncnc3c2cnn3-c2cccc(Cl)c2)cc1,,,HUH 9B,replicon,1–10 µM
CC[C@@H]1C[C@]1(NC(=O)C1CC(Oc2cc(-c3csc(NC(C)C)n3)nc3c(Cl)c(OCCN4CC[C@@H](OC)C4)ccc23)CN1C(=O)[C@@H](NC(=O)C1C[C@@H]2C[C@@H]2C1)C(C)(C)C)C(=O)O,1b,,Huh-luc,replicon,0.0038 µM
S=C(Nc1cccc(OCCCCCc2ccccc2)c1)N1CCN(CCCc2ccccc2)C1=S,,,Ava5-EG(delta4AB)SEAP,reporter gene / fluorescence,0.001–1 µM
CNC(=O)c1c(-c2ccc(F)cc2)oc2cc(C(C)(C)NC(C)=O)c(OC)cc12,,,Huh7,replicon,<1 µM
Nc1ncnc2c1c(-c1ccco1)cn2[C@H]1O[C@H](CO)[C@@H](O)C1(F)F,1b,,HCV replicon,replicon,1.63 µM
COC(=O)N[C@H](C(=O)N1CC2(CC2)C[C@H]1c1ncc(-c2ccc3c(c2)C(F)(F)c2cc(-c4ccc5nc([C@@H]6[C@H]7CC[C@H](C7)N6C(=O)[C@@H](NC(=O)OC)C(C)C)[nH]c5c4)ccc2-3)[nH]1)C(C)C,Genotype 4a,,HCV replicon,replicon,0.00011 µM
NC(=S)Nc1cccc(OCCCCCOc2cccc(Cc3ccccc3)c2)c1,,,Ava5-EG(delta4AB)SEAP,reporter gene / fluorescence,0.001–1 µM
CCN(C(=O)C1CCC(C)CC1)c1cc(-c2ccc(NC(=O)c3ccn[nH]3)cc2)sc1C(=O)O,1a,,,replicon,<0.5 µM
Cc1ccc(-n2ncc3c(Nc4cccc(Br)c4)ncnc32)c(C)c1,,,HUH 9B,replicon,1–10 µM
CCCCNC(=S)Nc1cccc(OCCCCCc2ccccc2)c1,,,Ava5-EG(delta4AB)SEAP,reporter gene / fluorescence,0.001–1 µM
Cc1ccc2c(c1)c(Sc1ccc(Cl)cc1)cc(=O)n2C,,,Huh-Luc-Neo,luciferase / replicon,<1 µM
CN(CCS(C)(=O)=O)c1nc(NCc2ccc(F)cc2)nc2ccc(-c3ccc(C(N)=O)cc3)nc12,,,,replicon,<0.1 µM
O=C(N[C@@H](C(=O)N1CCC[C@H]1c1ncc(-c2ccc(-c3ccc(-c4cnc([C@@H]5CCCN5C(=O)[C@H](NC(=O)C5CC5)c5ccccc5)s4)cc3)cc2)s1)c1ccccc1)C1CC1,genotype 2a,Y93N,Huh7.5,luciferase / reporter gene,0.0518 µM
CN(CCS(C)(=O)=O)c1nc(NCc2ccc(F)cc2)nc2ccc(-c3ccc(NC(=O)C(C)(C)N)cc3)nc12,,,,replicon,<0.1 µM
CC(CCOc1ccc(-c2ccccc2)cc1)CCOc1cccc(NC(N)=S)c1,,,Ava5-EG(delta4AB)SEAP,reporter gene / fluorescence,0.001–1 µM
CC1CCC(C(=O)N(c2cc(-c3ccc(NC(=O)c4cscn4)cc3)sc2C(=O)[O-])C(C)C)CC1.[NH3+]CCO,1a,,,replicon,<0.5 µM
Cc1ccc2c(c1)c(Sc1ccc(F)cc1)cc(=O)n2C,,,Huh-Luc-Neo,luciferase / replicon,<1 µM
CC(=O)N(CCN(Cc1ccccc1)C(C)=O)Cc1ccccc1,,,Huh 7 replicon cells,GFP,>50 µM
NC(=S)Nc1cccc(OCCCCCCOc2ccc(-c3ccccc3)cc2)c1,,,Ava5-EG(delta4AB)SEAP,reporter gene / fluorescence,0.001–1 µM
CNC(=O)c1c(-c2ccc(F)cc2)oc2cc(N(CS(C)(=O)=O)OC)c(OCc3ccc(C#N)cc3)cc12,,,Huh7,replicon,<1 µM
Cc1ccc(NC(=S)Nc2ccc(Sc3cc(=O)n(C)c4ccc(C)cc34)cc2)cc1,,,Huh-Luc-Neo,luciferase / replicon,1–10 µM
NS(=O)(=O)c1ccc(CCNc2ncnc3c2cnn3-c2ccc(Cl)cc2Cl)cc1,,,HUH 9B,replicon,<1 µM
CCOc1nc(NCc2ccc(F)cc2)nc2ccc(-c3ccc(C(=O)NC(C)(C)CO)cc3)nc12,,,,replicon,<0.1 µM
NC(=S)Nc1cccc(NCCCCCc2ccccc2)c1,,,Ava5-EG(delta4AB)SEAP,reporter gene / fluorescence,0.001–1 µM
Cn1c(=O)cc(Sc2cc(Cl)ccc2Cl)c2ccccc21,,,Huh-Luc-Neo,luciferase / replicon,10–100 µM
CNC(=O)c1c(-c2ccc(F)cc2)oc2cc(N(Cc3ccc(B(O)O)c(F)c3)S(C)(=O)=O)c(C3CC3)cc12,HCVcc virus (JC1p7Fluc2a),,Huh7.5,luciferase,0.047 µM
CNC(=O)c1c(-c2ccc(F)cc2)oc2ccc(OCc3ccc(C(=O)O)cc3)cc12,,,Huh7,replicon,<30 µM
C#Cc1cn([C@@H]2O[C@H](CO)[C@@H](O)[C@H]2F)c2ncnc(N)c12,1b,,HCV replicon,replicon,0.47 µM
CC1CCC(C(=O)N(CC(F)F)c2cc(-c3ccc(NC(=O)c4cscn4)cc3)sc2C(=O)O)CC1,1a,,,replicon,<0.5 µM
CCCCn1c(=O)c2ccccc2c2cc(C(O)(C(F)(F)F)C(F)(F)F)c3c(c21)OCO3,1b,,LucNeo2 cells,PCR,0.68 µM
CCOc1nc(NCc2ccc(C(N)=O)cc2)nc2ccc(-c3ccc(F)cc3)nc12,,,,replicon,<0.1 µM
Cc1cc(OCc2ccccc2)ccc1C1C2=C(CC(C)(C)CC2=O)Nc2c(O)cccc2N1C(=O)C(C)C,1b,,,luciferase / reporter gene / replicon,1.65 µM
CNC(=O)c1c(-c2ccc(F)cc2)oc2cc(C(C)(C)N)c(OC(C)C)cc12,,,Huh7,replicon,<1 µM
CCCCN(CCCC)c1ccc2c(c1)Cc1cc(NC(N)=S)ccc1-2,,,Ava5-EG(delta4AB)SEAP,reporter gene / fluorescence,0.001–1 µM
Fc1ccc(-c2ccc3nc(NCC(F)(F)F)nc(NCC(F)(F)F)c3n2)cc1,,,,replicon,<0.1 µM
NC(=S)Nc1cccc(OCCCCOc2ccc(-c3ccccc3)cc2)c1,,,Ava5-EG(delta4AB)SEAP,reporter gene / fluorescence,0.001–1 µM
CC1CCC(C(=O)N(c2cc(-c3ccc(NC(=O)c4cccs4)cc3)sc2C(=O)O)C(C)C)CC1,1a,,,replicon,<0.5 µM
Nc1ncnc2c1c(-c1ccsc1)cn2[C@H]1O[C@H](CO)[C@@H](O)C1(F)F,1b,,HCV replicon,replicon,0.91 µM
CNC(=O)c1c(-c2ccc(F)cc2)oc2cc(N3CCOCC3)c(OCc3noc(C(C)(C)C)n3)cc12,,,Huh7,replicon,<1 µM
Cc1ccccc1-n1ncc2c(NCCc3c[nH]c4ccccc34)ncnc21,,,HUH 9B,replicon,1–10 µM
CC1CCC(C(=O)N(c2cc(-c3ccc(NC(=O)c4cncs4)cc3)sc2C(=O)O)C(C)C)CC1,1a,,,replicon,>0.5 µM
CC[C@@H]1C[C@]1(NC(=O)C1CC(Oc2cc(-c3csc(NC(C)C)n3)nc3c(Cl)c(OC)ccc23)CN1C(=O)[C@@H](NC(=O)C1C[C@@H]2C[C@@H]2C1)C(C)(C)C)C(=O)O,1b,,Huh-luc,replicon,0.009 µM
CCn1c(=O)cc(Sc2ccc(Br)cc2)c2ccccc21,,,Huh-Luc-Neo,luciferase / replicon,1–10 µM
C#Cc1cn([C@@H]2O[C@H](CO)[C@@H](O)C2(F)F)c2ncnc(N)c12,1a,,HCV replicon,replicon,0.44 µM
Cc1ccc(-n2ncc3c(Nc4ccc(S(=O)(=O)Nc5nccs5)cc4)ncnc32)c(C)c1,,,HUH 9B,replicon,1–10 µM
Cc1cccc(C(=O)Nc2ccc(-c3cc(N(C(=O)C4CCC(C)CC4)C(C)C)c(C(=O)O)s3)cc2)n1,1a,,,replicon,<0.5 µM

Repeating the final 5 entries:

smiles,strain,changes,cell line,method,result
CC[C@@H]1C[C@]1(NC(=O)C1CC(Oc2cc(-c3csc(NC(C)C)n3)nc3c(Cl)c(OC)ccc23)CN1C(=O)[C@@H](NC(=O)C1C[C@@H]2C[C@@H]2C1)C(C)(C)C)C(=O)O,1b,,Huh-luc,replicon,0.009 µM
CCn1c(=O)cc(Sc2ccc(Br)cc2)c2ccccc21,,,Huh-Luc-Neo,luciferase / replicon,1–10 µM
C#Cc1cn([C@@H]2O[C@H](CO)[C@@H](O)C2(F)F)c2ncnc(N)c12,1a,,HCV replicon,replicon,0.44 µM
Cc1ccc(-n2ncc3c(Nc4ccc(S(=O)(=O)Nc5nccs5)cc4)ncnc32)c(C)c1,,,HUH 9B,replicon,1–10 µM
Cc1cccc(C(=O)Nc2ccc(-c3cc(N(C(=O)C4CCC(C)CC4)C(C)C)c(C(=O)O)s3)cc2)n1,1a,,,replicon,<0.5 µM